Measured values from several laboratories, pooled; numbers as filed in NIAID ChemDB.

Shared fields: growth or infection tests; agent: HIV-1; cells: MT-4; read-out: EC50

ECn: concentration that inhibits the pathogen or its effect by n%. Blank or dashed fields: not listed here. Conditions beyond the fields shown may differ between rows.

CCOC(=O)C(=O)CC(=O)c1cccc(Oc2ccnc(Nc3ccc(C#N)cc3)n2)c1 ; strain: IIIB ; changes: Y188L ; read by: MTT ; result: >13 µM
CN(C)c1ccc(NC2=NS(=O)(=O)NC(Cc3ccc4ccccc4c3)=C2)cc1 ; strain: IIIB ; read by: MTT ; result: >33 µM
CC(=O)OC[C@H]1O[C@@H](n2cc(C)c(=O)[nH]c2=O)C[C@@H]1N(C)OC(C)=O ; strain: IIIB ; read by: trypan blue ; result: 89 µg/mL
Cc1ccnc2c1NC(=O)c1cccnc1N2C1CC1 ; changes: RT-V106A ; read by: cytopathic effect / MTT ; result: 5.01 µM
Nc1nc(N)c2ncn([C@H]3CC[C@@H](CO)O3)c2n1 ; strain: IIIB ; read by: cytopathic effect / trypan blue ; result: 3.8 µM
O=C(c1ccccc1)N1C(=O)N(Cc2ccccc2)S(=O)(=O)c2cscc21 ; strain: IIIB ; read by: cytopathic effect / MTT ; result: >133 µM
CC[C@H](C)[C@@H](C(=O)O)n1sc2ccccc2c1=O ; strain: LAV-Bru ; read by: p24 / RT activity ; result: 3.2 µM
CN1C(=O)N(Cc2ccccc2)S(=O)(=O)c2csc([N+](=O)[O-])c21 ; strain: IIIB ; read by: cytopathic effect / MTT ; result: >368.8 µM
N#Cc1ccc(Nc2nccc(Oc3ccc(C(=O)CC(=O)C(=O)O)cc3)n2)cc1 ; strain: IIIB ; changes: K103N + Y181C ; read by: MTT ; result: >48 µM
NC(=O)c1ccc(NC2=NS(=O)(=O)NC(Cc3ccccc3)=C2)cc1 ; strain: IIIB ; read by: MTT ; result: >286 µM
Cc1nc(CCCCCCC(=O)c2ccccc2)n2nc(-n3ccnc3C)ccc12 ; strain: RF ; result: 0.7 µM
NC(=O)c1cn([C@H]2C=C[C@@H](CO)O2)c2ncnc(N)c12 ; strain: IIIB ; read by: cytopathic effect / trypan blue ; result: >125 µM
CCN(C)C1=NS(=O)(=O)NC(Cc2ccc3ccccc3c2)=C1 ; strain: IIIB ; read by: MTT ; result: >195 µM
Cc1cn([C@H]2C[C@H](N=[N+]=[N-])[C@@H](COC(N)=O)O2)c(=O)[nH]c1=O ; strain: 899A ; read by: p24 / antigen / absorbance ; result: 3.2 µM
CC(C)[C@H](NC(=O)N(C)Cc1ccccn1)C(=O)N[C@@H](Cc1ccccc1)[C@H](O)[C@@H](O)[C@H](Cc1ccccc1)NC(=O)[C@@H](NC(=O)N(C)Cc1ccccn1)C(C)C ; strain: NL4-3 ; read by: p24 ; result: 0.1 µM
O=S1(=O)N=C(Nc2ccc(Br)cc2)C=C(Cc2ccccc2)N1 ; strain: IIIB ; read by: MTT ; result: >163 µM
Cc1cn([C@H]2C[C@H](N=[N+]=[N-])[C@@H](COC(=O)C3=CN(C)C=CC3)O2)c(=O)[nH]c1=O ; strain: 899A ; read by: p24 / ELISA ; result: 0.29 µM
O=C1Nc2c(csc2[N+](=O)[O-])S(=O)(=O)N1Cc1ccccc1 ; strain: IIIB ; read by: cytopathic effect / MTT ; result: >5.9 µM
CN(C)C1=NS(=O)(=O)NC(Cc2ccc3ccccc3c2)=C1 ; strain: IIIB ; read by: MTT ; result: >268 µM
CCC(C)Oc1cc(N)nc(S(=O)(=O)c2cccc(Cl)c2)n1 ; strain: IIIB ; read by: cytopathic effect / MTT ; result: >80 µM
O=C1Nc2cscc2S(=O)(=O)N1c1ccccc1Br ; strain: IIIB ; read by: cytopathic effect / MTT ; result: >695 µM
CN(C)c1ccc(NC2=NS(=O)(=O)NC(Cc3ccccc3)=C2)cc1 ; strain: IIIB ; read by: MTT ; result: >256 µM
COC(=O)N[C@H](C(=O)N[C@@H](Cc1ccc(C#Cc2cnc(N3CC4CCC(C3)N4C3COC3)nc2)cc1)[C@H](CN(Cc1c(F)cc(-c2ccn(C(F)F)n2)cc1F)NC(=O)[C@@H](NC(=O)OC)C(C)(C)C(F)(F)F)OC(=O)CC(C)(C)c1c(CC(=O)Nc2cc(C(=O)O)cc(C(=O)O)c2)cc(C)cc1OP(=O)(O)O)C(C)(C)C(F)(F)F ; strain: IIIB ; read by: luminescence ; result: 0.0622 µM
Cc1cccc(C)c1OCC(=O)N[C@@H](Cc1ccccc1)[C@@H](O)C[C@H](Cc1ccccc1)NC(=O)[C@H](C(C)C)N1CCCNC1=O ; strain: IIIB ; read by: cytopathic effect / MTT ; result: 0.033 µM
C#Cc1ccc(Nc2nccc(Oc3c(C)cc(-c4cn(CCCC(=O)OC)nn4)cc3C)n2)cc1 ; strain: IIIB ; changes: E138K ; read by: MTT ; result: 1.68 µM
CC(C)[C@H](NC(=O)N(C)Cc1ccccn1)C(=O)N[C@@H](Cc1ccccc1)[C@H](O)[C@H](O)[C@H](Cc1ccccc1)NC(=O)[C@@H](NC(=O)N(C)Cc1ccccn1)C(C)C ; strain: NL4-3 ; changes: PR-R8K ; read by: p24 ; result: 4 µM
Fc1cccc(F)c1[C@@H]1SCc2nc3ccccc3n21 ; strain: RF ; read by: cytopathic effect ; result: 1 µM
O=C1Nc2cscc2S(=O)(=O)N1Cc1ccccc1 ; strain: IIIB ; read by: cytopathic effect / MTT ; result: >78.8 µM
CCC[C@@]1(CCc2ccccc2)CC(O)=C([C@H](CC)c2cccc(NS(=O)(=O)c3ccc(C(F)(F)F)cn3)c2)C(=O)O1 ; strain: IIIB ; read by: cytopathic effect / MTT ; result: 0.376 µM
Fc1cccc(F)c1C1SCc2nc3ccccc3n21 ; strain: NDK ; read by: cytopathic effect ; result: 0.69 µM
CCC(C)Oc1nc(Sc2cc(C)cc(C)c2)cc(=O)[nH]1 ; strain: IIIB ; read by: cytopathic effect / MTT ; result: >115 µM
N#CCN1C(=O)N(Cc2ccccc2)c2cscc2S1(=O)=O ; strain: IIIB ; read by: cytopathic effect / MTT ; result: >291 µM
CCNC(=O)OC[C@H]1O[C@@H](n2cc(C)c(=O)[nH]c2=O)C[C@@H]1N=[N+]=[N-] ; strain: 899A ; read by: p24 / antigen / absorbance ; result: 45 µM
CCc1nc(CCCCCCC(=O)c2ccccc2)n2nc(Cl)ccc12 ; strain: RF ; read by: cytopathic effect ; result: >25 µM
C#Cc1ccc(Nc2nccc(Oc3c(C)cc(-c4cn(Cc5cccc(C(=O)OC)c5)nn4)cc3C)n2)cc1 ; strain: RES056 ; read by: MTT ; result: >4.78 µM
COC(=O)N[C@H](C(=O)N[C@@H](Cc1ccc(C#Cc2cnc(N3CC4CCC(C3)N4C3COC3)nc2)cc1)[C@H](CN(Cc1c(F)cc(-c2ccn(C(F)F)n2)cc1F)NC(=O)[C@@H](NC(=O)OC)C(C)(C)C(F)(F)F)OC(=O)CC(C)(C)c1c(CC(=O)N2CCN(S(=O)(=O)N(C)C)CC2)cc(C)cc1OP(=O)(O)O)C(C)(C)C(F)(F)F ; strain: IIIB ; read by: luminescence ; result: 1.28 µM
C#Cc1ccc(Nc2nccc(Oc3c(C)cc(-c4cn(-c5ccc(C(=O)OC)cc5)nn4)cc3C)n2)cc1 ; strain: IIIB ; read by: MTT ; result: 0.013 µM
O=C(c1ccccc1)c1cnc(Cc2ccc(Nc3c(Cl)cccc3Cl)cc2)[nH]1 ; strain: NL4-3 ; read by: p24 / ELISA ; result: 0.13 µg/mL
Fc1cccc(F)c1[C@H]1SCc2nc3ccccc3n21 ; strain: IIIB ; read by: cytopathic effect ; result: 0.55 µM
CC(C)=CCN1Cc2ncnc3[nH]c(=O)n(c23)CC1C ; strain: IIIB ; result: 2 µM
O=C1Nc2cscc2S(=O)(=O)N1c1ccc(F)cc1 ; strain: IIIB ; read by: cytopathic effect / MTT ; result: >435.8 µM
C#Cc1ccc(Nc2nccc(Oc3c(C)cc(-c4cn(Cc5ccc(S(N)(=O)=O)cc5)nn4)cc3C)n2)cc1 ; strain: IIIB ; changes: F227L and V106A ; read by: MTT ; result: >86.44 µM
Cc1nc(CCCCCCC(=O)c2ccccc2)n2nc(-n3cccc3)ccc12 ; strain: RF ; read by: cytopathic effect ; result: 0.02 µM
O=S1(=O)NC(Cc2ccc3ccccc3c2)=CC(=NCc2ccccc2)N1 ; strain: IIIB ; read by: MTT ; result: >161 µM
Nc1cc(Cl)nc(S(=O)(=O)c2ccccc2)n1 ; strain: IIIB ; read by: cytopathic effect / MTT ; result: >6 µM
CN1C(=O)N(Cc2ccccc2)c2cscc2S1(=O)=O ; strain: IIIB ; read by: cytopathic effect / MTT ; result: >77.8 µM
CCOCn1c(Cc2ccccc2)c(C(C)C)c(=O)[nH]c1=O ; changes: RT-K103N ; read by: cytopathic effect / MTT ; result: 0.8 µM
Cc1ccnc2c1NC(=O)c1cccnc1N2C1CC1 ; strain: IIIB ; read by: cytopathic effect ; result: 0.048 µM
COC(=O)N[C@H](C(=O)N[C@@H](Cc1ccc(C#Cc2cnc(N3CC4CCC(C3)N4C3COC3)nc2)cc1)[C@H](CN(Cc1c(F)cc(-c2ccn(C(F)F)n2)cc1F)NC(=O)[C@@H](NC(=O)OC)C(C)(C)C(F)(F)F)OC(=O)CC(C)(C)c1c(CC(=O)NC(CCC(=O)O)CCC(=O)O)cc(C)cc1OP(=O)(O)O)C(C)(C)C(F)(F)F ; strain: IIIB ; read by: luminescence ; result: 0.0491 µM
CCC(C)Oc1nc(N)cc(S(=O)(=O)c2ccccc2)n1 ; strain: IIIB ; read by: cytopathic effect / MTT ; result: 12 µM
Cc1nc(CCCCCCC(=O)c2ccccc2)n2nc(-n3cnnc3)ccc12 ; strain: RF ; read by: cytopathic effect ; result: 1.1 µM
Cc1cn([C@H]2C[C@@H]3[C@@H](COCN3O)O2)c(=O)[nH]c1=O ; strain: IIIB ; read by: trypan blue ; result: 3.8 µg/mL
Cc1ccnc2c1NC(=O)c1cccnc1N2C1CC1 ; strain: IIIB ; read by: cytopathic effect / MTT ; result: >0.03 µM
O=S1(=O)NC(Cc2ccccc2)=CC(=NCc2ccccc2)N1 ; strain: IIIB ; read by: MTT ; result: >238 µM
CCC(C)Oc1cc(=O)[nH]c(S(=O)(=O)c2cccc(Cl)c2)n1 ; strain: IIIB ; read by: cytopathic effect / MTT ; result: >104 µM
CC(C)(C)NC(=O)[C@@H]1CN(Cc2cccnc2)CCN1C[C@@H](O)C[C@@H](Cc1ccccc1)C(=O)N[C@H]1c2ccccc2C[C@H]1O ; strain: IIIB ; read by: cytopathic effect / MTT ; result: 0.046 µM
C#Cc1ccc(Nc2nccc(Oc3c(C)cc(-c4cn(-c5cccc(C(=O)OC)c5)nn4)cc3C)n2)cc1 ; strain: IIIB ; changes: Y188L ; read by: MTT ; result: >242 µM
Cc1nc(CCCCCOCc2ccccc2)n2nc(Cl)ccc12 ; strain: RF ; read by: cytopathic effect ; result: 1.3 µM
Nc1nc(N)c2ncn([C@H]3C=C[C@@H](CO)O3)c2n1 ; strain: IIIB ; read by: cytopathic effect / trypan blue ; result: >125 µM
Cc1nc(CCCCCOC(=O)C2CCCC2)n2nc(Cl)ccc12 ; strain: RF ; read by: cytopathic effect ; result: >250 µM
C#Cc1ccc(Nc2nccc(Oc3c(C)cc(-c4cn(Cc5ccc([N+](=O)[O-])cc5)nn4)cc3C)n2)cc1 ; strain: IIIB ; changes: K103N ; read by: MTT ; result: 0.17 µM
CCOC(=O)C(=O)CC(=O)c1ccc(Oc2ccnc(Nc3ccc(C#N)cc3)n2)cc1 ; strain: IIIB ; changes: K103N + Y181C ; read by: MTT ; result: >22 µM
Cc1nc(CCCCCCC(=O)c2ccccc2)n2nc(-n3cccn3)ccc12 ; strain: RF ; result: >25 µM

Repeating the first 6 entries:

structure,strain,changes,read by,result
CCOC(=O)C(=O)CC(=O)c1cccc(Oc2ccnc(Nc3ccc(C#N)cc3)n2)c1,IIIB,Y188L,MTT,>13 µM
CN(C)c1ccc(NC2=NS(=O)(=O)NC(Cc3ccc4ccccc4c3)=C2)cc1,IIIB,-,MTT,>33 µM
CC(=O)OC[C@H]1O[C@@H](n2cc(C)c(=O)[nH]c2=O)C[C@@H]1N(C)OC(C)=O,IIIB,-,trypan blue,89 µg/mL
Cc1ccnc2c1NC(=O)c1cccnc1N2C1CC1,-,RT-V106A,cytopathic effect / MTT,5.01 µM
Nc1nc(N)c2ncn([C@H]3CC[C@@H](CO)O3)c2n1,IIIB,-,cytopathic effect / trypan blue,3.8 µM
O=C(c1ccccc1)N1C(=O)N(Cc2ccccc2)S(=O)(=O)c2cscc21,IIIB,-,cytopathic effect / MTT,>133 µM